## PSTVd loop 6 mutant pool in Nicotiana benthamiana

The pool varies loop 6 of the PSTVd intermediate strain in the pattern UNNNCGNNNG; wild type is UGACCGCGAG (upper and lower strand joined, each 5' to 3', the first 5 letters being the upper strand, closing pairs included).

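A pool of all variants was put on leaves of three Nicotiana benthamiana plants. Samples came from the inoculated region at 5 days, the leaf margin at 10 and upper systemic leaves at 12.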

Values are reads per thousand in the sample; higher means more abundant, 0 means not found. Each value is the mean of three plants. "Pool" is the share in the plasmid pool used as inoculum, on the same scale. The inoculated region was read from the minus strand, the other sites from the plus strand. With 36,220-57,551 reads a sample, very low values are single reads. The authors trace changes outside the varied positions to PCR and sequencing errors or to mutation in the plant; presence does not show that a variant is infectious alone. For reference, wild type rose from 20.7 per thousand in the pool to 195, 198, 203 (inoculated region), 629, 591, 734 (leaf margin) and 942, 870, 868 (systemic leaves).

UCCCCGACUG (pool 0.275) gave inoculated region 0.136; leaf margin 0; systemic leaves 0.
UGCGCGGAUG (pool 0.248) gave inoculated region 0.112; leaf margin 0.0252; systemic leaves 0.
UAAACGCGAG (pool 0.196) gave inoculated region 0.0833; leaf margin 0.568; systemic leaves 0.0322.
UGGACGAUAG (pool 0.314) gave inoculated region 0.125; leaf margin 0.0619; systemic leaves 0.
UUGCCGUAAG (pool 0.0915) gave inoculated region 0.102; leaf margin 0.00773; systemic leaves 0.
UGAUCGAAAG (pool 0.170) gave inoculated region 0.636; leaf margin 0.0860; systemic leaves 0.
UAGGCGCGGG (pool 0.209) gave inoculated region 0.148; leaf margin 0.00920; systemic leaves 0.
UCUUCGAGGG (pool 0.196) gave inoculated region 0.0961; leaf margin 0.0253; systemic leaves 0.
UCAGCGAGUG (pool 0.222) gave inoculated region 0.0961; leaf margin 0; systemic leaves 0.00599.
UGAUCGCGCU (pool 0.0131) gave inoculated region 0; leaf margin 0; systemic leaves 0.
UCAACGUUUG (pool 0.301) gave inoculated region 0.0771; leaf margin 0.0169; systemic leaves 0.00684.
UGCACGAAGG (pool 0.144) gave inoculated region 0.0594; leaf margin 0.00773; systemic leaves 0.
UUUCCGUCCG (pool 0.196) gave inoculated region 0.0887; leaf margin 0.0155; systemic leaves 0.
UCCCCUCGAG (pool 0.0392) gave inoculated region 0.00615; leaf margin 0; systemic leaves 0.
UCUACGAGUG (pool 0.196) gave inoculated region 0.0902; leaf margin 0.0184; systemic leaves 0.
UGUUCGUGUG (pool 0.445) gave inoculated region 0.0892; leaf margin 0.00773; systemic leaves 0.
UCCCCGGGUG (pool 0.288) gave inoculated region 0.119; leaf margin 0.0330; systemic leaves 0.
UCAACGGCAG (pool 0.131) gave inoculated region 0.552; leaf margin 0.103; systemic leaves 0.
UCACCGUCGG (pool 0.209) gave inoculated region 0.137; leaf margin 0.00773; systemic leaves 0.
UAACCGAUAG (pool 0.301) gave inoculated region 0.680; leaf margin 0.174; systemic leaves 0.0137.
UCAUCGCUAG (pool 0.0654) gave inoculated region 0.101; leaf margin 0.00773; systemic leaves 0.
UCACCGGUGG (pool 0.196) gave inoculated region 0.107; leaf margin 0.00773; systemic leaves 0.
UCGACGUUUG (pool 0.327) gave inoculated region 0.0710; leaf margin 0; systemic leaves 0.
UCAACGCGAG (pool 0.157) gave inoculated region 0.183; leaf margin 0.132; systemic leaves 0.
UAUCCGACAG (pool 0.353) gave inoculated region 0.160; leaf margin 0; systemic leaves 0.
UACACGAUUG (pool 0.144) gave inoculated region 0.107; leaf margin 0; systemic leaves 0.

The last 3 entries again:

sequence	pool	inoculated region	leaf margin	systemic leaves
UCAACGCGAG	0.157	0.183	0.132	0
UAUCCGACAG	0.353	0.160	0	0
UACACGAUUG	0.144	0.107	0	0

Data from the supplement of Wu et al. 2024, doi:10.1371/journal.ppat.1012142.